Test results: patent publication US7811577B2 (priority 2004, dated 2010)

What was measured:
[1] = system: D5 IgG binding to biotinylated 5-Helix; experiment: Biotinylated 5-Helix/D5 IgG interaction (competition) assay, AlphaScreen
[2] = system: D5-IgG binding to biotinylated IQN17; experiment: Competition of D5-IgG binding to biotinylated IQN17, AlphaScreen
[3] = Thermal denaturation (CD) in 2M guanidinium chloride; conditions: in the presence of 2M guanidinium chloride

Substance	D5 IgG binding in bio-5-Helix/D5 IgG interaction assay, in words [1]	also measured
CCGGIKKEIEAIKKEQEAIKKKIEAIEKLLQLTVWGIKALAAAIA [CCIZN17Ala4]	bind D5 IgG but precise IC50s could not be determined	
CCGGIKKKIEAIEKLLQLTVWGIKQLQARIL [CCI10N17]	comparable or superior potency to IZN17 and CCIZN17	
IKKEIEAIKKEQEAIKKKIEAIEKLLQLTaWGIKQLQARIL (Ac-IKKEIEAIKKEQEAIKKKIEAIEKLLQLTAWGIKQLQARIL-NH2) [IZN17A6]		competition of D5-IgG binding to biotinylated IQN17, in words [2]: compete for D5 binding less effectively than wildtype IZN17 peptide
IKKKIEAIEKLLQLTVWGIKQLQARILGGCC [I10N17CC]	comparable or superior potency to IZN17 and CCIZN17	
S10N17: SEQ ID NO:101; minimized SZ scaffold fused to N17 (IEKKIEAIEKLLQLTVWGIKQLQARIL)		melting temperature / midpoint of thermal denaturation [3]: about 60 °C
